Pooled drug test results. Numbers come from NIAID ChemDB, via PubChem.

All rows: growth or infection tests; organism: Mycobacterium tuberculosis

A number after MIC or MFC names an inhibition level or a share of isolates. Blank or dashed fields: not listed here. Inhibition is in % at the dose shown (toxicity tests: loss of growth or viability). MIC bound comes from a single tested concentration. Rows are shuffled and stem from different studies. ECn: concentration that inhibits the pathogen or its effect by n%.

SMILES	mutations	tested at	method	read-out	strain or isolate	value
CN[C@@H]1[C@H](O[C@H]2[C@H](O[C@H]3[C@H](O)[C@@H](O)[C@H](N=C(N)N)[C@@H](O)[C@@H]3N=C(N)N)O[C@@H](C)[C@]2(O)C=O)O[C@@H](CO)[C@H](O)[C@H]1O				Mean MIC	H37Rv	0.26 µg/mL
CC(C)c1ccc2c(c1)CC[C@H]1[C@](C)(CNCCNCCO)CCC[C@]21C				MIC		25 µM
COc1ccccc1CCNCCNCCC(c1ccccc1)c1ccccc1				MIC		12.5 µM
C[C@H](N)C(=O)N[C@@H]1[C@H]2C(=C(O)C[C@@H](O)[C@@H]2O)C(=O)O[C@]1(C)C(Cl)Cl				MIC	PAS-R	0.8 µg/mL
C[C@H]1COc2c(N3CCN(C)CC3)c(F)cc3c(=O)c(C(=O)O)cn1c23				MBC	ATCC 35827	1 µg/mL
CC1COc2c(N3CCN(C)CC3)c(F)cc3c(=O)c(C(=O)O)cn1c23				Median MIC	H37Ra	0.75 µg/mL
C[C@H]1C[C@H](N)CN1c1cc2c(cc1F)c(=O)c(C(=O)O)cn2-c1ccc(F)cc1F				MIC90	Drug-resistant	8 µg/mL
COc1ccc(/C=C/C(=O)c2ccc(F)cc2O)cc1				EC50		<12.5 µg/mL
CO[C@H]1/C=C/O[C@@]2(C)Oc3c(C)c(O)c4c(=O)c(c5oc6cc(N7CCN(CC(C)C)CC7)cc(=O)c6nc5c4c3=C2O)NC(=O)/C(C)=C\C=C\[C@H](C)[C@H](O)[C@@H](C)[C@@H](O)[C@@H](C)[C@H](OC(C)=O)[C@@H]1C				MIC	H37Rv	0.0156 µg/mL
O=C1CCC(=O)N1[N+](=O)[O-]		12.5 µg/mL	BACTEC	inhibition	H37Rv	10%
CCC[C@@H]1C[C@@H](C(=O)N[C@@H]([C@H]2O[C@H](SC)[C@H](O)[C@@H](O)[C@H]2O)[C@@H](C)O)N(C)C1				Mean MIC	H37Rv	>256 µg/mL
COc1ccc(/C=C/C(=O)c2cc(C(=O)O)ccc2O)cc1		12.5 µg/mL		inhibition		0%
N#Cc1nc(CSc2ccc(Cl)cc2)cnc1N		12.5 µg/mL	BACTEC	inhibition	H37Rv	71%
CO[C@H]1/C=C/O[C@@]2(C)Oc3c(C)c(O)c4c(O)c(c(/C=N/N5CCN(C)CC5)c(O)c4c3C2=O)NC(=O)/C(C)=C\C=C\[C@H](C)[C@H](O)[C@@H](C)[C@@H](O)[C@@H](C)[C@H](OC(C)=O)[C@@H]1C	Rifampicin- and isoniazid-resistant		broth dilution	MIC	Clinical isolate 15552	>10 µM
O/N=C(\Cc1nc2cc(Cl)c(Cl)cc2nc1C/C(=N\O)c1cccc2ccccc12)c1cccc2ccccc12			BACTEC	MIC bound	H37Rv	>6.25 µg/mL
CN[C@@H]1[C@@H](O)[C@@H](O[C@@H]2[C@@H](O)[C@H](O[C@H]3O[C@H](CN)CC[C@H]3N)[C@@H](N)C[C@H]2N)OC[C@]1(C)O				Mean MIC	H37Rv	6 µg/mL
OCCNCCNCCC(c1ccccc1)c1ccccc1				MIC		50 µM
NNC(=O)c1ccncc1				MIC	Isolate H	0.031 µg/mL
NC[C@H]1O[C@H](O[C@H]2[C@H](O)[C@@H](O[C@H]3O[C@H](CO)[C@@H](O)[C@H](N)[C@H]3O)[C@H](N)C[C@@H]2N)[C@H](O)[C@@H](O)[C@@H]1O				MIC	TN2508 (001/16)	>256 µg/mL
C[C@H]1COc2c(N3CCN(C)CC3)c(F)cc3c(=O)c(C(=O)O)cn1c23				MIC	Isolate 10	4 µg/mL
O=C(CC1=Nc2nnc(-c3nnc4n3C(=O)C(CC(=O)c3cccnc3)=N4)n2C1=O)c1cccnc1			BACTEC	MIC	H37Rv	≥12.5 µg/mL
c1ccc([C@H]2C[C@@H]2NCCNC2C3CC4CC(C3)CC2C4)cc1				MIC		25 µM
Cc1cc(C)c(C(=O)C2Oc3ccccc3C2c2ccccc2)c(C)c1			BACTEC	MIC bound	H37Rv	>12.5 µg/mL
CO[C@H]1/C=C/O[C@@]2(C)Oc3c(C)c(O)c4c(O)c(c(/C=N/N5CCN(C)CC5)c(O)c4c3C2=O)NC(=O)/C(C)=C\C=C\[C@H](C)[C@H](O)[C@@H](C)[C@@H](O)[C@@H](C)[C@H](OC(C)=O)[C@@H]1C				MIC	Isolate 10	>32 µg/mL
Cn1cc(NC(=O)c2cc(NC(=O)CCCCCCCCCCC(=O)Nc3cc(C(=O)Nc4cc(C(=O)NCCC(N)=[NH2+])n(C)c4)n(C)c3)cn2C)cc1C(=O)NCCC(N)=[NH2+]			BACTEC	MIC bound	H37Rv	≤12.5 µg/mL
CC(C)c1ccc2c(c1)CC[C@H]1[C@](C)(CNCCN[C@H](CO)Cc3ccc(Cl)cc3)CCC[C@]21C				MIC		25 µM
CC(CNC[C@@H]1CC[C@H]2C[C@@H]1C2(C)C)NC[C@@H]1CC[C@H]2C[C@@H]1C2(C)C				MIC		6.25 µM
Nc1ncccc1/C=C/C(=O)c1cc(Cl)ccc1O				EC50	H37Rv	>12.5 µg/mL
COc1ccc(CCNCCNC(C)c2cccc3ccccc23)cc1				MIC		50 µM
CCC(C)c1c(NC(C)=O)o[nH]c1=O		12.5 µg/mL	BACTEC	inhibition	H37Rv	16%
COc1ccc2c(=O)n(-c3ccc(C)cc3)c(=O)oc2c1				MIC	CNCTC MY331/88	32 µM
CO[C@H]1/C=C/O[C@@]2(C)Oc3c(C)c(O)c4c(O)c(c(/C=N/N5CCN(C)CC5)c(O)c4c3C2=O)NC(=O)/C(C)=C\C=C\[C@H](C)[C@H](O)[C@@H](C)[C@@H](O)[C@@H](C)[C@H](OC(C)=O)[C@@H]1C				Mean MIC	H37Rv	0.11 µg/mL
O=c1oc2ccc(F)cc2c(=O)n1-c1ccccc1				MIC	CNCTC MY331/88	31 µM
NC[C@H]1O[C@H](O[C@H]2[C@H](O)[C@@H](O[C@H]3O[C@H](CO)[C@@H](O)[C@H](N)[C@H]3O)[C@H](N)C[C@@H]2N)[C@H](O)[C@@H](O)[C@@H]1O				Mean MIC	H37Rv	1.56 µg/mL
COc1cccc2c1C(=O)c1c(O)c3c(c(O)c1C2=O)C[C@@](O)(/C(C)=N/NC(=O)c1ccc(Cl)cc1)C[C@H]3O[C@H]1C[C@H](N)[C@H](O)[C@H](C)O1		12.5 µg/mL	BACTEC	inhibition	H37Rv	97%
CO[C@H]1/C=C/O[C@@]2(C)Oc3c(C)c(O)c4c(=O)c(c5oc6cc(N7CCN(CC(C)C)CC7)cc(=O)c6nc5c4c3=C2O)NC(=O)/C(C)=C\C=C\[C@H](C)[C@H](O)[C@@H](C)[C@@H](O)[C@@H](C)[C@H](OC(C)=O)[C@@H]1C				MIC	TN807	2 µg/mL
CCCCC(CC)CN1CN(CC(CC)CCCC)CC(C)(NCCNCc2cccc(OC)c2OC)C1				MIC		25 µM
CC(C)CC(=O)C1=C(O)C(Nc2ccccc2)=CC(=O)C1=Nc1ccccc1			BACTEC	MIC bound	H37Rv	≤128 µg/mL
CCCCCCCCCCCNCCNCc1ccccc1Sc1ccccc1CO				MIC		25 µM
NCC[C@H](O)C(=O)N[C@@H]1C[C@H](N)[C@@H](O[C@H]2O[C@H](CN)[C@@H](O)[C@H](O)[C@H]2O)[C@H](O)[C@H]1O[C@H]1O[C@H](CO)[C@@H](O)[C@H](N)[C@H]1O				MIC	3R	2.5 µg/mL
C=C(NC(=O)c1csc(-c2nc3c(cc2O)-c2nc(cs2)C(=O)N[C@@H]([C@@H](C)O)C(=O)N/C(=C(\C)OC)c2nc(cs2)C(=O)N[C@@H]2c4nc(cs4)C(=O)N[C@@H](COC(=O)c4c5c6c(cccc6n4O)COC(=O)[C@@H](O[C@H]4C[C@](C)(O)[C@H](N(C)C)[C@H](C)O4)[C@H]2OC5)c2nc-3cs2)n1)C(N)=O			broth dilution	MIC	Clinical isolate 12850	≤2.5 µM
CCCCC(CC)CN1CN(CC(CC)CCCC)CC(C)(NCCNCCC(c2ccccc2)c2ccccc2)C1				MIC		12.5 µM
CC(C)=CCC/C(C)=C/CNCCNC1C2CC3CC(C2)CC1C3				MIC		9.4 µM
Nc1ccc(C(=O)O)c(O)c1				Mean MIC	H37Rv	2.31 µg/mL
O=C1c2ccccc2C(=O)c2c(NCCNCCO)ccc(NCCNCCO)c21		12.5 µg/mL	BACTEC	inhibition	H37Rv	27%
Cc1ccc2oc(=O)n(-c3ccc(Cl)c(Cl)c3)c(=O)c2c1				MIC	CNCTC MY331/88	8 µM
O=C(CNc1cccc([N+](=O)[O-])c1)Nn1c(-c2ccccc2)nc2ccccc2c1=O		12.5 µg/mL	BACTEC	inhibition	H37Rv	50%
CC1CN(c2cc3c(cc2F)c(=O)c(C(=O)O)cn3-c2ccc(F)cc2F)CCN1				MIC	ATCC 35820	0.5 µg/mL
CC(CNC[C@@H]1CC[C@H]2C[C@@H]1C2(C)C)NCC12CC3CC(CC(C3)C1)C2				MIC		6.25 µM
COC(=O)C1C2CC3c4c(c5ccc(OC)cc5n4[N+](=O)[O-])CCN3CC2CC(OC(=O)c2cc(OC)c(OC)c(OC)c2)C1OC			BACTEC	MIC bound	H37Rv	>12.5 µg/mL
C[C@H](O)CNCCNCCc1ccccc1				MIC		50 µM
CC1COc2c(N3CCN(C)CC3)c(F)cc3c(=O)c(C(=O)O)cn1c23				MBC	H37Rv	2 µg/mL
CN(C)N1C(=O)C(=O)N(c2cccc3ccccc23)C1=O			BACTEC	MIC bound	H37Rv	>12.5 µg/mL
NNC(=O)c1ccncc1			broth dilution	MIC	Clinical isolate 16116	≤0.2 µM
CCSCCCCCCCCCCCC(=O)O			BACTEC	MIC bound	H37Rv	>12.5 µg/mL
CO/C(C)=C1/NC(=O)[C@H]([C@@H](C)O)NC(=O)c2csc(n2)-c2cc(O)c(-c3nc(C(=O)NCCCN4CCOCC4)cs3)nc2-c2csc(n2)[C@@H]2COC(=O)c3c4c5c(cccc5n3O)COC(=O)[C@@H](O[C@H]3C[C@](C)(O)[C@H](N(C)C)[C@H](C)O3)[C@@H](OC4)[C@H](NC(=O)c3csc1n3)c1nc(cs1)C(=O)N2	Rifampicin- isoniazid- moxifloxacin-resistant		broth dilution	MIC	Clinical isolate 6134	≤2.5 µM
Cc1nc(NN)c(C(N)=O)nc1C			BACTEC	MIC	H37Rv	≥12.5 µg/mL
CC(CNC1CCCCCCC1)NCCC(c1ccccc1)c1ccccc1				MIC		12.5 µM
NC1CCN(c2nc3c(cc2F)c(=O)c(C(=O)O)cn3-c2ccc(F)cc2F)C1				MIC	ATCC 35826	2 µg/mL
COc1ccccc1CCNCCNCCNc1ccccc1				MIC		50 µM
C[C@@H]1CN(c2c(F)c(N)c3c(=O)c(C(=O)O)cn(C4CC4)c3c2F)C[C@H](C)N1				MIC	Isolate 8	2 µg/mL
CC1CCC(NCCNCCCCc2ccccc2)CC1				MIC		50 µM
C[C@@H]1CN(c2c(F)c(N)c3c(=O)c(C(=O)O)cn(C4CC4)c3c2F)C[C@H](C)N1				Median MIC	H37Ra	0.07 µg/mL
CO[C@H]1/C=C/O[C@@]2(C)Oc3c(C)c(O)c4c(O)c(c(/C=N/N5CCN(C)CC5)c(O)c4c3C2=O)NC(=O)/C(C)=C\C=C\[C@H](C)[C@H](O)[C@@H](C)[C@@H](O)[C@@H](C)[C@H](OC(C)=O)[C@@H]1C				MIC	PR1282	0.08 µg/mL
CCC(C)(O)Cc1cnccn1			BACTEC	MIC bound	H37Rv	>12.5 µg/mL
NNC(=O)c1ccncc1				MIC	H37Rv	0.1 µg/mL
COc1cc2c(c3c1c(=O)c1ccc(F)cc1n3C)C=CC(C)(C)O2			BACTEC	MIC	H37Rv	≥12.5 µg/mL
N#Cc1ccc(-n2c(=O)oc3ccc(Br)cc3c2=O)cc1				MIC	CNCTC MY331/88	2 µM
Cl.O=C(Cc1ccccc1)N/N=C(\CCN1CCCC1)CC(c1ccccc1)c1c(O)c2ccccc2oc1=O		12.5 µg/mL	BACTEC	inhibition	H37Rv	21%
c1ccc(CCCCNCCNCC(c2ccccc2)c2ccccc2)cc1				MIC		6.25 µM
CC1=C(c2ccco2)C(c2ccco2)OC1=O		12.5 µg/mL	BACTEC	inhibition	H37Rv	5%
COc1ccc(O)c(C(=O)/C=C/c2ccco2)c1		12.5 µg/mL		inhibition		0%

A second listing of 6 rows from above:

{"SMILES": "CO[C@H]1/C=C/O[C@@]2(C)Oc3c(C)c(O)c4c(O)c(c(/C=N/N5CCN(C)CC5)c(O)c4c3C2=O)NC(=O)/C(C)=C\\C=C\\[C@H](C)[C@H](O)[C@@H](C)[C@@H](O)[C@@H](C)[C@H](OC(C)=O)[C@@H]1C", "read-out": "Mean MIC", "strain or isolate": "H37Rv", "value": "0.11 µg/mL"}
{"SMILES": "NC[C@H]1O[C@H](O[C@H]2[C@H](O)[C@@H](O[C@H]3O[C@H](CO)[C@@H](O)[C@H](N)[C@H]3O)[C@H](N)C[C@@H]2N)[C@H](O)[C@@H](O)[C@@H]1O", "read-out": "MIC", "strain or isolate": "TN2508 (001/16)", "value": ">256 µg/mL"}
{"SMILES": "COc1ccc(/C=C/C(=O)c2ccc(F)cc2O)cc1", "read-out": "EC50", "value": "<12.5 µg/mL"}
{"SMILES": "CC(CNC[C@@H]1CC[C@H]2C[C@@H]1C2(C)C)NCC12CC3CC(CC(C3)C1)C2", "read-out": "MIC", "value": "6.25 µM"}
{"SMILES": "CCC[C@@H]1C[C@@H](C(=O)N[C@@H]([C@H]2O[C@H](SC)[C@H](O)[C@@H](O)[C@H]2O)[C@@H](C)O)N(C)C1", "read-out": "Mean MIC", "strain or isolate": "H37Rv", "value": ">256 µg/mL"}
{"SMILES": "O=C(CNc1cccc([N+](=O)[O-])c1)Nn1c(-c2ccccc2)nc2ccccc2c1=O", "tested at": "12.5 µg/mL", "method": "BACTEC", "read-out": "inhibition", "strain or isolate": "H37Rv", "value": "50%"}